B1: EBOV63 (antibody, V domains shown)
VH: EVQLVESGGGLVKPGGSLRLSCAASGFTLNFYNMNWVRQAPGKGLEWVSSISSSSNYIYYADSVKGRFTISRDNARKSLYLQMNSLRAEDTAVYYCARDFVQLLIPQRDEWQGVHDYYGMDVWGQGTLVTVSS
VL: EIVLTQSPGTLSLSPGGRATLSCRASQSVSNSYLAWYQQKPGQAPRLLIYGASSRATGIPDRFSGSGSGTDFILTISRLEPEDFAVYYCQHYGSSQLTFGGGTKVEIK
B2: EBOV49 (antibody, V domains shown)
VH: EVQLVESGGGLVQPGGSLRLSCAASGFTFSSYEINWVRQAPGRGLEWVSYISSSGRTIYYADSVKGRFTISRDNAKNSLYLQMNSLRAEDTAVYYCAREPYVDGILYGAGDSYFDYWGQGTLVTVSS
VL: DIQMTQSPSSLSASVGDRVTITCRASQSISNYLNWYQQKPGKAPKVLIYAASSLQSGVSSRFSGSGSGTDFTLTISSLQPEDFATYFCQQSYNTPPVTFGQGTRLEIK
B3: EBOV87 (antibody, V domains shown)
VH: QVQLVQSGAEVKRPGASVKVSCKASGYTFTSYAISWVRQAPGQGLEWMGWISGNNGNTNYAQKLQGRLTMTTDTSTSTAYMELRSLRSDDTAVYYCARDADIVVVVGATGTYYYGMDVWGQGTLVTVSS
VL: DIVMTQSPSTLSASVGDRVTITCRASQSISSWLAWYQQKPGKAPKLLIYDASSLESGVPSRFSGSGSGTEFTLTISSLQPDDFATYYCQQYKSSLRTFGQGTQLEIK
B4: EBOV62 (antibody, V domains shown)
VH: EVQLVESGGGLVQPGGSLRLSCAASGFTFSSYWMSWVRQAPGKGLEWVANIKQDGSAKYYVDSVKGRFTISRDNAKNSLYLQMNSLRAEDTAVYYCARDGLLGISDLLYPIYYFDYWGQGTLVTVSS
VL: DIVMTQSPSSLSASVGDRVTITCRASQNIGSYLNWYQQKPGKAPNLLMYAASSLQSGVPSRFSGSGSGTDFTLTITSLQPEDFATYYCQQSYSIPRTFGQGTQLEIK
B5: EBOV157 (antibody, V domains shown)
VH: QVQLVQSGGGLVQPGGSLRLSCAASGFTVSNNYMSWVRQAPGKGLEWVSIFYSDGTTYNADSVKGRFTISRDNSKNTLYLQMNSLRAEDTAVYYCARQASGYDAYYMDVWGQGTLVTVSS
VL: DIVMTQSPSTLSASVGDRVTITCRASQSINSWLAWYQQKPGKAPKLLIYQASTLERGVPSRFSGSGAGTEFTLTISSLQPDDFATYYCQQYSSFPLTFGGGTKVELK
B6: EBOV52 (antibody, V domains shown)
VH: QVQLQESGPGLVKPSETLSLNCTVSGGSISSYYWSWIRQPPGKGLEWIGYIYDSGRTKYNPSLKSRVTISLDTSKNQFSLKLSSVTAADTAVYYCASLGPFDKLWFGELLPGWFDPWGQGTLVTVSS
VL: EIVLTQSPATLSLSPGGRATLSCRASQSVHNYLAWYQQKSGQAPRLLIYDASNRATGIPARFSGSGSGTDFTLTISSLEPDDFAVYYCQHRSNWLTFGGGTKVEIK

Biological target: EBOV GP on virus (Ebola Zaire strain Mayinga) (Ebola Zaire strain Mayinga (EBOV), UniProt Q05320 33-676)
Assay: cell-based or functional assay

Binder | IC50, neutralization of EBOV [µg/mL]
B1 | 6.4
B2 | 6.5
B3 | 3.3
B4 | 8.5
B5 | 29.9
B6 | 4
